{"source": "patent US20230391838A1", "about": "(priority 2020, published 2023)", "key": {"[1]": {"system": "enzyme and uptake assays including acetylcholinesterase and MAO", "test": "Enzyme and uptake assays"}, "CYP enzyme isoforms": {"system": "CYP enzyme isoforms", "test": "CYP enzyme isoform inhibition assays", "details": "10 μM"}, "[2]": {"test": "Human serum stability assay (Example 2-F)", "details": "90% human serum, 37° C., HPLC traces"}, "N-type Ca2+ channel": {"system": "N-type Ca2+ channel", "test": "Competition binding on N-type Ca2+ channel"}, "[3]": {"system": "pain-associated receptors and ion channels (opioid receptors, NMDAR, BZD, OCT receptors, voltage-gated ion channels)", "test": "Competition binding screen on pain-related receptors and ion channels", "details": "10 μM"}, "GABAB1b receptors": {"biological_target": "GABAB1b receptors (Homo sapiens, UniProt Q9UBS5)", "test": "Functional study at GABAB1b receptors (agonist and antagonist effect)", "details": "concentration-response"}, "[4]": {"system": "oxaliplatin-induced cold allodynia", "test": "Chronic oxaliplatin-induced neuropathic pain, cold plate test, RgIA-5524", "details": "40 μg/kg with oxaliplatin i.p. 3.5 mg/kg 5 days each week, day 21"}, "[5]": {"system": "oxaliplatin-induced cold allodynia", "test": "Single-injection oxaliplatin cold allodynia, cold plate test, α9 KO mice", "details": "single oxaliplatin 5.0 or 10.0 mg/kg, RgIA-5524 40 ug/kg s.c., day 5"}, "[6]": {"system": "oxaliplatin-induced cold allodynia", "test": "Single-injection oxaliplatin cold allodynia, cold plate test, wild-type mice", "details": "single oxaliplatin 5.0 or 10.0 mg/kg, RgIA-5524 40 ug/kg s.c., day 5"}, "human α9α10 nAChR": {"biological_target": "human α9α10 nAChR (Homo sapiens, UniProt Q9GZZ6+Q9UGM1)", "test": "Two-electrode voltage-clamp, block of ACh-induced current in X. laevis oocytes expressing human α9α10 nAChR", "format": "cell-based", "details": "Table 1B-2"}, "[7]": {"test": "In vitro human serum stability test (Example 1-C)", "details": "0.1 mg/mL, 37° C."}, "α2β4 nAChR": {"system": "α2β4 nAChR", "test": "Two-electrode voltage-clamp in X. laevis oocytes, α2β4 nAChR", "details": "α2β4, human; inhibition <50% at 10 μM"}, "α3β4 nAChR": {"biological_target": "α3β4 nAChR (Homo sapiens, UniProt P30926+P32297)", "test": "Two-electrode voltage-clamp in X. laevis oocytes, α3β4 nAChR", "details": "inhibition <50% at 10 μM"}, "α4β4 nAChR": {"biological_target": "α4β4 nAChR (Homo sapiens, UniProt P30926+P43681)", "test": "Two-electrode voltage-clamp in X. laevis oocytes, α4β4 nAChR", "details": "inhibition <50% at 10 μM"}, "α6/α3β4 nAChR": {"biological_target": "α6/α3β4 nAChR (Homo sapiens, UniProt P30926+P32297+Q15825)", "test": "Two-electrode voltage-clamp in X. laevis oocytes, α6/α3β4 nAChR", "details": "inhibition <50% at 10 μM"}, "α6/α3β2β3 nAChR": {"biological_target": "α6/α3β2β3 nAChR (Homo sapiens, UniProt P17787+P32297+Q15825)", "test": "Two-electrode voltage-clamp in X. laevis oocytes, α6/α3β2β3 nAChR", "details": "inhibition <50% at 10 μM"}, "[8]": {"biological_target": "Muscle type nAChR (α1β1δε) (Homo sapiens, UniProt P02708+Q04844+Q07001)", "test": "Two-electrode voltage-clamp in X. laevis oocytes, muscle type nAChR", "details": "inhibition <50% at 10 μM"}, "[9]": {"system": "oxaliplatin-induced cold allodynia", "test": "Oxaliplatin-induced cold allodynia, cold plate test, daily analogue 6", "details": "80 μg/kg s.c. daily with oxaliplatin 3.5 mg/kg i.p., mice"}, "β4β4 nAChR": {"system": "β4β4 nAChR", "test": "Two-electrode voltage-clamp in X. laevis oocytes, subtype printed β4β4", "details": "β4β4 as printed, human; inhibition <50% at 10 μM"}, "[10]": {"system": "other human nAChR subtypes", "test": "Two-electrode voltage-clamp selectivity test on other human nAChR subtypes", "details": "read-out: potency on other human nAChR subtypes; all subtypes except for α7"}}, "note": "Some compounds may have been tested in ways that are not shown here.", "data": [{"smiles": "C[C@@H](O)[C@@H]1NC(=O)[C@@H]2CSCSC[C@@H](C(=O)N[C@H](CC(=O)N[C@@H](CCCNC(=N)N)C(=O)O)Cc3ccc(O)cc3)NC(=O)[C@H](CCC(N)=O)NC(=O)[C@H](Cc3ccc(O)c(I)c3)NC(=O)[C@H](CCCNC(=N)N)NC(=O)[C@H](CSSC[C@H](NC(=O)CN)C(=O)N2)NC(=O)[C@H](CCCNC(=N)N)NC(=O)[C@@H]2CCCN2C(=O)[C@H](CC(=O)O)NC1=O", "note": "[RgIA-5524, G C^I C^II T D P R C^III R (iY) Q C^IV (bhY) R]", "values": [{"measurement": "activity in enzyme and uptake assays", "setting": "[1]", "result": "inactive"}, {"measurement": "inhibition of CYP enzyme isoforms", "setting": "CYP enzyme isoforms", "result": "no inhibition was observed"}, {"measurement": "disulfide scrambling in human serum (in words)", "setting": "[2]", "result": "Complete disulfide scrambling prevention was observed"}, {"measurement": "inhibition on N-type Ca2+ channel", "setting": "N-type Ca2+ channel; 10 μM", "result": 58.4, "unit": "%"}, {"measurement": "affinity on N-type Ca2+ channel (in words)", "setting": "N-type Ca2+ channel; concentration-response analysis", "result": "micromolar affinity"}, {"measurement": "inhibition on pain-associated receptors and ion channels", "setting": "[3]", "result": "< 50", "unit": "%"}, {"measurement": "agonist or antagonist effects at GABAB1b receptors", "setting": "GABAB1b receptors", "result": "failed to display any concentration-dependent agonist or antagonist effects"}, {"measurement": "development of cold allodynia, paw withdrawal latency on cold plate", "setting": "[4]", "result": "did not develop allodynia"}, {"measurement": "effect on acute cold allodynia, Ox/RgIA-5524 vs Ox/Sal", "setting": "[5]", "result": "no significance was observed"}, {"measurement": "effect on acute cold allodynia", "setting": "[6]", "result": "effective in reversing the acute cold allodynia"}]}, {"smiles": "C[C@@H](O)[C@@H]1NC(=O)[C@@H]2CSSC[C@@H]3NC(=O)[C@H](CCC(N)=O)NC(=O)[C@H](Cc4ccc(O)c(I)c4)NC(=O)[C@H](CCCNC(=N)N)NC(=O)[C@H](CSSC[C@H](NC(=O)CNC(=O)[C@@H](N)CCC(=O)NCCCC[C@@H](C(=O)O)NC(=O)[C@H](Cc4ccc(O)cc4)NC3=O)C(=O)N2)NC(=O)[C@H](CCCNC(=N)N)NC(=O)[C@@H]2CCCN2C(=O)[C@H](CC(=O)O)NC1=O", "values": [{"measurement": "IC50", "setting": "human α9α10 nAChR", "result": 0.0034, "unit": "µM"}, {"measurement": "fraction scrambled into [1,4] isomer in human serum", "setting": "[7]", "result": "less than 10%"}, {"measurement": "stability in human serum (in words)", "setting": "[7]", "result": "dramatically increased stability over α-RgIA4"}, {"measurement": "IC50", "setting": "α2β4 nAChR", "result": "> 10", "unit": "µM"}, {"measurement": "IC50", "setting": "α3β4 nAChR", "result": "> 10", "unit": "µM"}, {"measurement": "IC50", "setting": "α4β4 nAChR", "result": "> 10", "unit": "µM"}, {"measurement": "IC50", "setting": "α6/α3β4 nAChR", "result": "> 10", "unit": "µM"}, {"measurement": "IC50", "setting": "α6/α3β2β3 nAChR", "result": "> 10", "unit": "µM"}, {"measurement": "IC50", "setting": "[8]", "result": "> 10", "unit": "µM"}, {"measurement": "effect on cold allodynia, cold plate latency", "setting": "[9]", "result": "significantly prevented the cold allodynia"}, {"measurement": "IC50", "setting": "β4β4 nAChR", "result": "> 10", "unit": "µM"}, {"measurement": "IC50", "setting": "[10]", "result": "> 10", "unit": "µM"}]}]}
